Anti-infective test results gathered from many reports (values: NIAID ChemDB through PubChem).

All rows: growth or infection tests; species: Adenovirus

ECn: concentration that inhibits the pathogen or its effect by n%.

| structure | strain | read-out | read by | cells | result |
|---|---|---|---|---|---|
| CCCSc1nsc(-c2ccccc2)c1C(=O)OC | TYPE 2 | EC50 | plaque count | HEP-2 | >50 µg/mL |
| CCOP(=O)(O)CC(OCn1ccc(=O)[nH]c1=O)C(C)O | TYPE 2 | EC50 | cytopathic effect | HEP-2 | >320 µg/mL |
| NC(=O)c1csc([C@@H]2O[C@H](CO)[C@@H](O)[C@H]2O)n1 | Type 2/adenoid 6 | EC50 | cytopathic effect | HeLa | 140 µg/mL |
| N/C(=N/O)c1cn([C@H]2C[C@H](O)[C@@H](CO)O2)c2ncnc(N)c12 | adenoid 75 (TYPE 5) | EC50 | plaque count | HeLa | 8 µM |
| Nc1ccn(C[C@H]2COP(=O)(O)CO2)c(=O)n1 | TYPE 2 | EC50 | PCR | HEL | 4.1 µM |
| Nc1ncnc2c1ncn2C[C@@H](CO)OCP(=O)(O)O | TYPE 2 | EC50 | PCR | HEL | 0.19 µg/mL |
| O=c1[nH]c(=O)n([C@H]2C[C@H](O)[C@@H](CO)O2)cc1/C=C/Br | TYPE 2 | EC50 | plaque count | VERO | 100 µM |
| Nc1nc2c(ncn2COCCO)c(=O)[nH]1 | TYPE 2 | EC50 | cytopathic effect | HEL | >1000 µM |
| Nc1ncnc2c1ncn2C[C@H](CO)OCP(=O)(O)O | Chicago (type 1) | EC90 | virus yield | - | 0.3 µg/mL |
| CSc1nsc(-c2ccccc2)c1C(=O)O | TYPE 2 | EC50 | plaque count | HEP-2 | >500 µg/mL |
| NC(=O)c1cn([C@@H]2O[C@H](CO)[C@@H](O)[C@@H]2O)c2ncnc(N)c12 | adenoid 75 (TYPE 5) | EC50 | plaque count | HeLa | 8 µM |
| Cc1cn([C@H]2C[C@H](F)[C@@H](CO)O2)c(=O)[nH]c1=O | TYPE 2 | EC50 | PCR | HEL | 3.2 µM |
| Nc1nc2c(ncn2CC(CO)OCP(=O)(O)O)c(=O)[nH]1 | 3 TYPES | EC50 | cytopathic effect | HEL | 2.6 µg/mL |
| NC(=O)c1nc(F)c[nH]c1=O | - | EC50 | plaque count | A549 | >100 µg/mL |
| Nc1ccn([C@H]2CC[C@@H](CO)O2)c(=O)n1 | TYPE 11 | EC50 | cytopathic effect | BCC-1/KMC | 14.2 µg/mL |
| NC(=S)c1cn([C@@H]2O[C@H](CO)[C@@H](O)[C@@H]2O)c2ncnc(N)c12 | adenoid 75 (TYPE 5) | EC50 | plaque count | HeLa | 1 µM |
| CCSc1nsc(-c2ccccc2)c1C#N | TYPE 2 | EC50 | plaque count | HEP-2 | >100 µg/mL |
| O=c1c(O)c(-c2ccc(O)cc2)oc2cc(O)cc(O)c12 | TYPE 2 | EC50 | - | VERO | 10 µg/mL |
| N#CCSc1nsc(-c2ccccc2)c1C#N | TYPE 2 | EC50 | plaque count | HEP-2 | >10 µg/mL |
| Nc1ncnc2c1ncn2CCOCP(=O)(O)O | TYPE 3 | MIC | - | - | >100 µg/mL |
| Nc1cc(OC[C@H](CO)OCP(=O)(O)O)nc(N)n1 | TYPE 2 | EC50 | PCR | HEL | 10 µM |
| Nc1nc(N)c2ncn(CC(CO)OCP(=O)(O)O)c2n1 | 3 TYPES | EC50 | cytopathic effect | HEL | 2.8 µg/mL |
| CSc1nsc(-c2ccccc2)c1C#N | TYPE 2 | EC50 | plaque count | HEP-2 | >20 µg/mL |
| O=c1[nH]cnc2c1ncn2CC(CO)OCP(=O)(O)O | 3 TYPES | EC50 | cytopathic effect | HEL | >125 µg/mL |
| CCOP(=O)(O)CC(OCn1cc(C)c(=O)[nH]c1=O)C(C)O | TYPE 2 | EC50 | cytopathic effect | HEP-2 | >320 µg/mL |
| Nc1ccn([C@@H]2C[C@@H](O)[C@H](CO)O2)c(=O)n1 | TYPE 1 | EC50 | - | A549 | >100 µM |
| Nc1ccn([C@@H]2C[C@@H](O)[C@H](CO)O2)c(=O)n1 | TYPE 1 | EC50 | - | A549 | >100 µM |
| Nc1ncnc2c1ncn2C[C@@H](CO)OCP(=O)(O)O | TRIM (TYPE 8) | EC90 | virus yield | - | 8 µg/mL |
| NC(=O)c1ncn([C@@H]2O[C@H](CO)[C@@H](O)[C@H]2O)n1 | TYPE 2 | EC50 | cytopathic effect | HeLa | 12.5 µg/mL |
| Nc1nc(N)c2ncn(CCOCP(=O)(O)O)c2n1 | TYPE 2 | MIC | - | - | >100 µg/mL |
| CN(C)c1nsc(-c2ccccc2)c1C#N | TYPE 2 | EC50 | plaque count | HEP-2 | >15 µg/mL |
| O=c1[nH]cnc2c1ncn2CCOCP(=O)(O)O | 3 TYPES | EC50 | cytopathic effect | HEL | >125 µg/mL |
| OCC1=C[C@@H](O)[C@@H]2C=CO[C@@H](O[C@@H]3O[C@H](CO)[C@@H](O)[C@H](O)[C@H]3O)[C@H]12 | TYPE 11 | EC50 | cytopathic effect | BCC-1/KMC | >200 µg/mL |

For reference, 4 entries again:

structure | strain | read-out | read by | cells | result
N#CCSc1nsc(-c2ccccc2)c1C#N | TYPE 2 | EC50 | plaque count | HEP-2 | >10 µg/mL
OCC1=C[C@@H](O)[C@@H]2C=CO[C@@H](O[C@@H]3O[C@H](CO)[C@@H](O)[C@H](O)[C@H]3O)[C@H]12 | TYPE 11 | EC50 | cytopathic effect | BCC-1/KMC | >200 µg/mL
NC(=O)c1cn([C@@H]2O[C@H](CO)[C@@H](O)[C@@H]2O)c2ncnc(N)c12 | adenoid 75 (TYPE 5) | EC50 | plaque count | HeLa | 8 µM
N/C(=N/O)c1cn([C@H]2C[C@H](O)[C@@H](CO)O2)c2ncnc(N)c12 | adenoid 75 (TYPE 5) | EC50 | plaque count | HeLa | 8 µM

Blank or dashed fields: not listed here. Neighbouring rows are from separate reports.